From PMC5472179 (Nature Communications, 2017) come the findings set out here.

One assay has as its target T1, eVP30 110-272 (Ebola virus (Zaire), UniProt Q05323 110-272).
T1 sequence: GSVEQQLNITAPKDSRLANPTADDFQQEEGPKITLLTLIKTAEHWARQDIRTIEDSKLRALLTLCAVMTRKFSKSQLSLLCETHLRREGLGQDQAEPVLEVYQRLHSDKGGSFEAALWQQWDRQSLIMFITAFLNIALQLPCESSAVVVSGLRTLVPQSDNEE

The target of a further assay is eVP30 110-272 Q229A (Ebola virus (Zaire), UniProt Q05323 110-272, Q229A).
Another assay deals with eVP30 110-272 Q203A (Ebola virus (Zaire), UniProt Q05323 110-272, Q203A).
Another assay has as its target T2, eVP30_(110–272) (Ebola Zaire, UniProt Q05323 110-272).
T2 sequence: T1 sequence
Kind of assay: fluorescence polarisation. On the technique in general: Polarisation of emitted light reports the rotation of a fluorescent probe.

With RTPTVAPPAPVYRDHS (fluorescein isothiocyanate (FITC) conjugated; position not stated) [FITC-labeled eNP600-615 peptide], the binding result in the assay with eVP30 110-272, in the assay with eVP30 110-272 Q229A and with eVP30 110-272 Q203A was “binds” in each case.

B1: eNP_(590–739) WT (domain or fragment)
chain: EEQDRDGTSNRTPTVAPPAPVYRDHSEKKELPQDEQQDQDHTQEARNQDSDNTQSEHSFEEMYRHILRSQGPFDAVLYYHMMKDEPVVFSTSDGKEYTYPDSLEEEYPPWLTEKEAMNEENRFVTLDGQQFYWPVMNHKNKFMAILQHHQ
Consider B1, for which the binding result in the assay with eVP30_(110–272) was “binds”.

Regarding RTPTVAPPAPVYRDHS (conjugated to fluorescein isothiocyanate (FITC)) [FITC-eVP30BP], the binding result in the assay with eVP30_(110–272) is listed as “binds”.
